Pooled drug test results. Numbers come from NIAID ChemDB, via PubChem.

Shared fields: tests in culture; species: Mycobacterium tuberculosis

a–b is a range or a potency band.

compound | strain | measure | changes | read by | dose | result
Cc1ccc(NC2=CC(=O)c3ccccc3C2=O)cc1 | H37Rv | MIC | - | visual reading | - | 2 µg/mL
CC[C@H]1OC(=O)[C@H](C)[C@@H](O[C@H]2C[C@@](C)(OC)[C@@H](O)[C@H](C)O2)[C@H](C)[C@@H](O[C@@H]2O[C@H](C)C[C@H](N(C)C)[C@H]2O)[C@](C)(O)C[C@@H](C)C(=O)[C@H](C)[C@@H](O)[C@]1(C)O | H37Rv | MBC | - | - | - | >160 µg/mL
O=[N+]([O-])c1cccc(F)c1CSc1nc2ccccc2[nH]1 | My 331/88 | MIC | - | - | - | 125 µM
CN[C@@H]1[C@H](O)[C@H](NC)[C@H]2O[C@@]3(O)[C@H](NC(=O)c4ccccn4)C[C@@H](C)C[C@H]3O[C@@H]2[C@H]1O | H37Rv | MIC | - | broth dilution | - | 100 µg/mL
Cc1c2ccncc2cc2c1[nH]c1ccccc12 | H37Rv | MIC bound | - | resazurin | - | <6.25 µg/mL
CCNc1ccc(C(N)=S)cc1 | - | MIC | - | - | - | 425 µM
CN(C)CCCN1c2ccccc2Sc2ccc(Cl)cc21 | H37Rv | MBC | - | - | - | 10–20 µg/mL
CO/N=C1\CCN(c2nc(=O)c3cc(C(F)(F)F)cc([N+](=O)[O-])c3s2)C1 | H37Rv | MIC90 | - | resazurin | - | 0.116 µg/mL
CC1(C)OC2(CC1C1(C)C=CC(=O)O1)CC1(O)C(CCC34CC13C(=O)OC4c1ccoc1)O2 | H37Rv | MIC bound | - | BACTEC | - | >12.5 µg/mL
COc1cc(/C=N/N=C(\N)c2ccccn2)cc(OC)c1 | H37Rv | MIC | - | - | - | 250 µg/mL
COC(=O)c1cc2c(c(C(=O)OC)c1C(=O)OC)c(=O)n(C)c1ccccc21 | H37Rv | MIC bound | - | BACTEC | - | >12.5 µg/mL
COc1c(N2CCNC(C)C2)c(F)cc2c(=O)c(C(=O)O)cn(C3CC3)c12 | 10 isolates ciprofloxacin-resistant | MIC90 | - | - | - | 3.13 µg/mL
N/C(=N/N=C/c1ccc(Br)cc1)c1ccccn1 | 1454 (THC-resistant) | MIC | - | - | - | 32 µg/mL
CN(CC1CCCCC1)C1CCN(c2nc(=O)c3cc(C(F)(F)F)cc([N+](=O)[O-])c3s2)C1 | H37Rv | MIC90 | - | resazurin | - | 0.088 µg/mL
COCCN1CCN(C(=O)c2nc3cc(C(F)(F)F)cc([N+](=O)[O-])c3s2)CC1 | H37Rv | MIC80 | BTZ-resistant (C387S) | resazurin / absorbance | - | >64 µg/mL
CC(C)=CCc1c2c(c(O)c3c(=O)c4cccc(O)c4oc13)C=CC(C)(C)O2 | H37Ra | MIC | - | - | - | 12.5 µg/mL
O=C1OC(COCC#Cc2ccccc2)CN1c1ccccc1 | H37Rv | inhibition | - | BACTEC | 12.5 µg/mL | 7%
CN[C@@H]1[C@H](O)[C@H](NC)[C@H]2O[C@@]3(O)[C@H](NC(=O)Cc4cccc(OC)c4)C[C@@H](C)C[C@H]3O[C@@H]2[C@H]1O | H37Rv | MIC | - | broth dilution | - | 12.5 µg/mL
O=C(O)Cc1ccc(O)c2ncccc12 | H37Rv | MIC50 | - | - | - | 0.1–0.5 µg/mL
CC(=O)SCC1CS1 | H37Rv | MIC | - | - | - | 0.4–0.8 µg/mL
O=c1nc(N2CC(=NOCc3ccccc3)C2)sc2c([N+](=O)[O-])cc(C(F)(F)F)cc12 | 16802 clinical isolate | MIC90 | - | resazurin | - | 0.016 µg/mL
CCCCCCC1(C)SC(=O)C(C)=C1O | H37Rv | MIC | - | - | - | >1000 µM
CC(=O)N1C(=O)CC23c4ccccc4C(=O)N2CCCN13 | H37Rv | MIC | - | BACTEC | - | ≥12.8 µg/mL
CCCCCCCCCC(=O)N[C@H]1[C@H](Oc2c3cc4cc2Oc2ccc(cc2Cl)[C@@H](O[C@@H]2O[C@H](CO)[C@@H](O)[C@H](O)[C@H]2NC(C)=O)[C@@H]2NC(=O)[C@H](NC(=O)[C@@H]4NC(=O)[C@H]4NC(=O)[C@@H](Cc5ccc(c(Cl)c5)O3)NC(=O)[C@H](N)c3ccc(O)c(c3)Oc3cc(O)cc4c3)c3ccc(O)c(c3)-c3c(O[C@H]4O[C@H](CO)[C@@H](O)[C@H](O)[C@@H]4O)cc(O)cc3[C@H](C(=O)O)NC2=O)O[C@H](CO)[C@@H](O)[C@@H]1O | L1901 | MIC | - | - | - | 64 µg/mL
Cc1cc(=O)[nH]c2ccccc12 | H37Rv | MIC50 | - | - | - | >10 µg/mL
CCC(C)C1(C)SC(=O)C(C)=C1O | H37Rv | MIC | - | - | - | 500 µM
O=[N+]([O-])c1cc(C(F)(F)F)cc2nc(C3=NCCO3)sc12 | H37Rv | MIC80 | Overexpressing Rv3790 (DprE1) | resazurin / absorbance | - | >32 µg/mL
CCCC(C)Nc1ccc(C(N)=S)cc1 | - | MIC | - | - | - | 150 µM
CN1C(=O)OC2C3NC(=O)OC3C(O)C(O)C21 | H37Rv | MIC bound | - | BACTEC | - | >12.5 µg/mL
COc1cc(Cc2cnc(N)nc2N)cc(Br)c1OC | Var. hominis | MIC | - | - | - | >1000 µg/mL
N/C(=N/N=C/c1ccccc1)c1ccccn1 | H37Rv | MIC | - | - | - | 32 µg/mL
CCOC(=O)c1cc2cc3c4c(c2oc1=O)CCCN4CCC3 | H37Rv | inhibition | - | BACTEC | 12.5 µg/mL | 50%
CO/N=C1\CCCN(c2nc(=O)c3cc(C(F)(F)F)cc([N+](=O)[O-])c3s2)CC1 | 16802 clinical isolate | MIC90 | - | resazurin | - | 0.016 µg/mL
N#Cc1ccc(CSc2nc3ccccc3[nH]2)cc1 | My 331/88 | MIC | - | - | - | 32 µM
CO[C@H]1/C=C/O[C@@]2(C)Oc3c(C)c(O)c4c(O)c(c5c(c4c3C2=O)NC2(CCN(CC(C)C)CC2)N=5)=NC(=O)/C(C)=C\C=C\[C@H](C)[C@H](O)[C@@H](C)[C@@H](O)[C@@H](C)[C@H](OC(C)=O)[C@@H]1C | 1 isolates (Ser522Trp) | MIC | - | - | - | >5 µg/mL
CCCCCC1=CC(=O)C=C(OC)C1=O | - | MIC | - | - | - | 60.3 µg/mL
Nc1ncnc2c1S(=O)(=O)NCN2 | H37Rv | inhibition | - | BACTEC | 12.5 µg/mL | -3%
COc1c(O)cc2oc3cc4c(c(O)c3c(=O)c2c1CC=C(C)C)C=CC(C)(C)O4 | H37Ra | MIC | - | - | - | 12.5 µg/mL
CN1N=C(c2ccncc2)OC1c1ccccc1F | 16PI | MIC | - | - | - | 20 µg/mL
Cc1ccc(NP2(Nc3ccc(C)cc3)=NP(Nc3ccc(C)cc3)(N3CC3)=NP(Nc3ccc(C)cc3)(N3CC3)=N2)cc1 | H37Rv | inhibition | - | BACTEC | 128 µg/mL | 100%
COc1ccccc1/C=N/N=C(/N)c1ccccn1 | 1814 (THC-resistant) | MIC | - | - | - | 32 µg/mL
COc1ccc(Cc2cnc(N)nc2N)cc1OC | Var. hominis | MIC | - | - | - | 500 µg/mL
C[C@]1(COc2ccc(N3CCC(Oc4ccc(OC(F)(F)F)cc4)CC3)cc2)Cn2cc([N+](=O)[O-])nc2O1 | 31 strains (rifampicin-susceptible) | MIC90 | - | - | - | 0.012 µg/mL
CN1N=C(c2ccncc2)OC1c1ccc(C(F)(F)F)cc1 | 6 PI | MIC | - | - | - | >20 µg/mL
O=c1[nH]c(=S)[nH]c(O)c1C=Nc1cc(Cl)ccc1O | Clinical isolate | MIC | - | visual reading | - | 32 µg/mL
O=C(N/N=C/c1ccc(O)cc1O)c1ccncc1 | CS-R | MIC | - | - | - | 0.5 µg/mL
CCCCCSc1nc2ccccc2[nH]1 | My 331/88 | MIC | - | - | - | 125 µM
CC(=O)N/N=C/c1ccc([N+](=O)[O-])o1 | H37Rv | MIC bound | - | BACTEC | - | >12.5 µg/mL
CC1=C(O)C(C)(C2CCCC2)SC1=O | H37Rv | MIC | - | - | - | 1000 µM
CCN(CC)Cc1cc(Nc2nc(/C=C/c3ccc(Cl)cc3)nc(Cl)c2-c2ccc(Cl)cc2)ccc1O | H37Rv | MIC bound | - | resazurin | - | <6.25 µg/mL
CCCCc1ccc(O)c2ncccc12 | H37Rv | MIC50 | - | - | - | >10 µg/mL
NC1=NN(c2ccccc2)C(=O)C1/C(=N/NC(=O)c1cc2ccccc2cc1O)C(=O)Nc1ccc(Cl)cc1 | H37Rv | MIC bound | - | resazurin | - | >6.25 µg/mL
Cc1cc2oc(=O)cc(-c3ccccc3)c2c(C)c1-c1ccc(C)c2ccccc12 | H37Rv | EC90 | FadD32 | turbidity | - | >64 µM
Nc1c(-c2c(Cl)cccc2Cl)[n+]([O-])c2ccccc2[n+]1[O-] | RMP-R | MIC | - | - | - | 3.1 µg/mL
Clc1ccc(CSc2nc3ccccc3[nH]2)cc1 | My 331/88 | MIC | - | - | - | >125 µM
COC(=O)/C1=C/c2c([nH]c3ccccc23)/C(C(=O)OC)=C\c2c1[nH]c1ccccc21 | H37Rv | EC50 | - | resazurin / absorbance | - | 0.24 µM
O=C1NN2CCCN=C2c2ncccc21 | H37Rv | inhibition | - | BACTEC | 12.5 µg/mL | 10%
Cc1cc(=O)[nH]c(N/N=C/c2cc(Cl)cc(Cl)c2O)n1 | H37Rv | MIC | - | visual reading | - | 0.06 µg/mL
CN1N=C(c2ccncc2)OC1c1ccc(Cl)c(Cl)c1 | 16PI | MIC | - | - | - | 5 µg/mL
NC(=S)c1cccc(CSc2nc3ccccc3[nH]2)c1 | My 331/88 | MIC | - | - | - | 62 µM
COc1c(O)cc2oc3cc(O)c(CC=C(C)C)c(O)c3c(=O)c2c1CC=C(C)C | H37Ra | MIC | - | - | - | 6.25 µg/mL
Cc1ccc(NC(=S)NC=C(C(N)=O)C(N)=O)c(C)c1 | H37Rv | MIC bound | - | resazurin | - | >6.25 µg/mL
N/C(=N\N=C\c1ccc(Cl)c([N+](=O)[O-])c1)c1ccccn1 | H37Rv | MIC | - | - | - | 500 µg/mL
CC(=O)Nc1ccc(C(N)=S)cc1 | - | MIC | - | - | - | 500 µM
CN(C)c1ccc2ccc(N(C)C)nc2c1 | H37Rv | inhibition | - | BACTEC | 12.5 µg/mL | 79%
COc1c(O)cc2oc3cc4c(c(O)c3c(=O)c2c1CC=C(C)C)CC(=O)C(C)(C)O4 | H37Ra | MIC | - | - | - | 200 µg/mL
CNC(=O)CCC(C)[C@H]1CCC2C3C(C[C@H](OC(C)=O)[C@@]21C)[C@@]1(C)CCC2(C[C@H]1C[C@H]3OC(C)=O)OOC1(CCC(c3ccccc3)CC1)OO2 | - | MIC | - | - | - | >6.25 µg/mL
CN[C@@H]1[C@H](O)[C@H](NC)[C@H]2O[C@@]3(O)[C@H](NC(=O)Cc4cccnc4)C[C@@H](C)C[C@H]3O[C@@H]2[C@H]1O | H37Rv | MIC | - | broth dilution | - | 12.5 µg/mL
FC(F)(F)c1cccc(CSc2nc3ccccc3[nH]2)c1 | My 331/88 | MIC | - | - | - | 62 µM
NC(=S)c1ccc(N)cc1 | - | MIC | - | - | - | 425 µM
CN1N=C(c2ccncc2)OC1c1cccc(Cl)c1 | 6 PI | MIC | - | - | - | >20 µg/mL
CON=C1CN(c2nc(=O)c3cc(C(F)(F)F)cc([N+](=O)[O-])c3s2)C1 | 16802 clinical isolate | MIC90 | - | resazurin | - | 0.031 µg/mL
CCCCCC1(C)SC(=O)C(C)=C1O | H37Rv | MIC | - | - | - | 1000 µM
COC(=O)C1=C(C(=O)OC)C23CC4CCC2(C(=O)C1O3)C4(C)C | H37Rv | MIC bound | - | BACTEC | - | >12.5 µg/mL
N/C(=N/N=C/c1cccc(F)c1)c1ccccn1 | H37Rv | MIC | - | - | - | 125 µg/mL
Cc1cnc2c(O)cccc2c1 | M 607 | MIC50 | - | - | - | 5–10 µg/mL
COc1ccc2c(c1OC)C(=C(Cl)Cl)N1CCc3cc4c(cc3C1=C2C=O)OCO4 | H37Rv | MIC | - | BACTEC | - | ≥12.5 µg/mL
Cc1ccc(-c2ccc3oc(=O)cc(-c4ccccc4)c3c2)cc1 | H37Rv | EC90 | FadD32 | turbidity | - | >250 µM
CC(C)(O)C1=CC23CC(C)(C(=O)O)C4CCCCC4(C)C2CC1OO3.NC1CCCCC1 | H37Rv | MIC bound | - | - | - | >6.25 µg/mL
C[C@@H]1CN(c2c(F)c(N)c3c(=O)c(C(=O)O)cn(C4CC4)c3c2F)C[C@H](C)N1 | 20 strains | MIC50 | - | - | - | 0.25 µg/mL
Nc1ccc(NC2=C(N3CCCCC3)C(=O)c3ccccc3C2=O)cc1 | Clinical isolate | MIC | - | visual reading | - | 16 µg/mL
c1ccc(Nc2nc(N/N=C3\CN4CCC3CC4)nc(N3CCCCC3)n2)cc1 | H37Ra | MIC | - | MTT | - | 0.1 µg/mL
N/C(=N/N=C/c1ccccc1Cl)c1ccccn1 | 1814 (THC-resistant) | MIC | - | - | - | 16 µg/mL
Clc1ccc(CSc2nc3ccccc3[nH]2)cc1Cl | My 331/88 | MIC | - | - | - | >32 µM
Cc1cc2oc(=O)cc(-c3ccccc3)c2c(C)c1-c1ccc(CNC2CCCCC2)cc1 | H37Rv | EC90 | FadD32 | turbidity | - | 10.5 µM

Repeating the final 6 entries:

compound | strain | measure | changes | read by | dose | result
C[C@@H]1CN(c2c(F)c(N)c3c(=O)c(C(=O)O)cn(C4CC4)c3c2F)C[C@H](C)N1 | 20 strains | MIC50 | - | - | - | 0.25 µg/mL
Nc1ccc(NC2=C(N3CCCCC3)C(=O)c3ccccc3C2=O)cc1 | Clinical isolate | MIC | - | visual reading | - | 16 µg/mL
c1ccc(Nc2nc(N/N=C3\CN4CCC3CC4)nc(N3CCCCC3)n2)cc1 | H37Ra | MIC | - | MTT | - | 0.1 µg/mL
N/C(=N/N=C/c1ccccc1Cl)c1ccccn1 | 1814 (THC-resistant) | MIC | - | - | - | 16 µg/mL
Clc1ccc(CSc2nc3ccccc3[nH]2)cc1Cl | My 331/88 | MIC | - | - | - | >32 µM
Cc1cc2oc(=O)cc(-c3ccccc3)c2c(C)c1-c1ccc(CNC2CCCCC2)cc1 | H37Rv | EC90 | FadD32 | turbidity | - | 10.5 µM

Rows are shuffled and stem from different studies. ECn: concentration that inhibits the pathogen or its effect by n%. A number after MIC or MFC names an inhibition level or a share of isolates. An empty or dashed field is not shown. Inhibition is in % at the dose shown (toxicity tests: loss of growth or viability). MIC bound comes from a single tested concentration.